Values from PubChem BioAssay AID504761 (Drosophila RNAi Screening Center, 2011)
The deposit covers about 22,000 reagents; below is a random part of those with a known target gene and a result. Of all reagents, 116 (0.52%) are marked active. 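Calls depend on retest data that are not deposited; infection was ranked per plate without normalising between plates; the unit of the infection score is not given.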 Further read-outs or replicates are left out here. Not given: the amount of reagent, the time to read-out.

Screen: 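Genome-wide fly cell screen for genes dengue virus requires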 (primary screen)
Cell system: D.Mel-2 cells from Drosophila
Reagents: long dsRNA against Drosophila genes
Challenge: infection with dengue virus type 2; dose and infection time not stated
Detection: 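Cells stained for dengue envelope protein and imaged; percent of infected cells per well on duplicate plates, ranked by infection, with stained nuclei counted for cell number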
Scale: infection score: higher = more virus-infected cells
Rule for the call: 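Very low infection ranking in both replicate wells (chance probability at most 0.065), then a retest showing infection dropped 1.5-fold or more at p below 0.05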
Meaning of the calls: active = confirmed: knock-down lowers infection; inactive = not picked or not confirmed

usp (ultraspiracle) [DRSC18847] showed infection score, replicate 1 = 4.42; inactive.
usp (ultraspiracle) [DRSC24447] showed infection score, replicate 1 = 1.73; inactive.
After knock-down of Asph (Aspartyl beta-hydroxylase) [DRSC06783], the screen gave infection score, replicate 1 = 9.53; inactive.
Asph (Aspartyl beta-hydroxylase) [DRSC07171] showed infection score, replicate 1 = 24.4; inactive.
Asph (Aspartyl beta-hydroxylase) [DRSC29507] gave infection score, replicate 1 = 7.9; inactive.
CG11885 [DRSC00329] gave infection score, replicate 1 = 5.59; inactive.
Against PolI (DNA polymerase iota) [DRSC16267], the values are infection score, replicate 1 = 8.39; inactive.
For tkv (thickveins) [DRSC03623] the deposit lists infection score, replicate 1 = 5.02; inactive.
tkv (thickveins) [DRSC22606] showed infection score, replicate 1 = 5.82; inactive.
tkv (thickveins) [DRSC25957] showed infection score, replicate 1 = 1.51; inactive.
CROT (Carnitine O-octanoyltransferase) [DRSC14518] showed infection score, replicate 1 = 9.82; inactive.
After knock-down of CROT (Carnitine O-octanoyltransferase) [DRSC14519], the screen gave infection score, replicate 1 = 11.7; inactive.
After knock-down of CROT (Carnitine O-octanoyltransferase) [DRSC27733], the screen gave infection score, replicate 1 = 8.01; inactive.
Depletion of Eip78C (Ecdysone-induced protein 78C) [DRSC23097] gave: infection score, replicate 1 = 0.95; inactive.

2 entries from above, set out differently:
| gene knocked down | amplicon | infection score, replicate 1 | activity call |
| --- | --- | --- | --- |
| CG11885 | DRSC00329 | 5.59 | inactive |
| PolI (DNA polymerase iota) | DRSC16267 | 8.39 | inactive |
